Data published in patent US20250325569A1, “COMPOSITIONS AND METHODS OF MAKING AND USE THEREOF” (Ohio State Innovation Foundation, priority 2022, published 2025).

Test system: Salmonella enterica ser. Livingstone 1236H
Assay: Microbroth dilution MIC
Type: cell-based
Method: Antimicrobial Assays. […] Susceptibility testing was performed using the microbroth dilution method in 96 round-well microtiter plates as previously described [A20]. Compounds were prepared as 50× of stocks (10 Mm) by dissolving in Di H2O. All bacterial strains were grown and assayed M9 glucose media (with amendments added as required), and yeast strains in YMM. Controls wells contained 200 µM kanamycin (for bacteria) or nystatin (for yeasts), no compound addition (vehicle only), and no cell addition (added media instead). Culture densities (OD600) were recorded using a Bio-Rad xMark microplate spectrophotometer after 16 hours for all strains except bacilli, which were recorded after 24 hours. […] MICs values are from triplicate assays performed on separate days. Disk diffusion assays were used to assess antimicrobial activity of the purified compounds against filamentous fungi and against Mycobacterium smegmatis [A20].

`CC(N)C(=O)NC(C)C(=O)NC(CP(=O)(O)O)C(=O)O` (stereo not shown) [Compound 3] showed an MIC greater than 200 µM.
